Molecules are shown by their SMILES.

The subject of this data set is N. gonorrhoeae. Briefly: MIC determination by macrobroth dilution in the medium compared with E-test strips on chocolate agar (Example 5, FIG. 6). To be noted: 8 strains of N. gonorrhoeae; susceptible, intermediate or resistant by published breakpoints. In kind it is cell-based. A general note: Dilution methods test growth across graded concentrations, often in twofold steps.
Regarding `CO/N=C(\C(=O)N[C@@H]1C(=O)N2C(C(=O)O)=C(CSc3nc(=O)c(=O)[nH]n3C)CS[C@H]12)c1csc(N)n1` [ceftriaxone], the “percentage of strains allocated to same susceptibility category by both methods” value came to 100 percentage. Under `CC1(C)S[C@@H]2[C@H](NC(=O)Cc3ccccc3)C(=O)N2[C@H]1C(=O)O` [benzylpenicillin] stands 75 percentage; under `CC1(C)S[C@@H]2[C@H](NC(=O)[C@H](N)c3ccc(O)cc3)C(=O)N2[C@H]1C(=O)O` [amoxicillin], 87.5 percentage.

These data come from US20100003740A1, “CHEMICALLY DEFINED CULTURE MEDIUM FOR NEISSERIA” (priority 2006, published 2010).
